Measured values taken from patent US9340769B2 (priority 2008, dated 2016).

Key:
[1] = tested on: HaCaT or RAW264.7 cells; conditions: SMase 350 mU/ml 15 min, then CAMP factor 25 μg/ml 18 hr
[2] = tested on: human SZ95 sebocytes; assay: Susceptibility of sialidase-treated sebocytes to P. acnes (cell death by trypan blue, adherence by CFU); conditions: sialidase 10 μg/ml 2 h, then live P. acnes 10^7 per 10^6 cells overnight; 15~20% in untreated or GFP-treated

Molecule	cell susceptibility to CAMP factor after SMase pretreatment [1]	P. acnes-induced cell death in sialidase-treated sebocytes, increased by [2] [%]
bacterial SMase: sphingomyelinase from S. aureus (Sigma)	increased the cell susceptibility to CAMP factor	–
sialidase: recombinant P. acnes cell wall-anchored sialidase (gi|50843035) 6×NH fusion protein; enzyme and, with Freund adjuvants, vaccine (protein, left off: small tags and cut ends) MTLTTKLSALAIAGIMAVIGAPMVTQSAMASGRAPAPDAATTQPKLVTGDITSTDQSGTHLFFGKNIVRNAKGAIMKVDRTWPAAVPAPLPDVRADSSTRMLLGPVVDLAVNEHPAGVFYRIPALATASNGDLLASYDLRPGSAADAPNPNSIVQRRSRDNGRTRGPQTVIHAGTLGRRKVGYSDPSYLVDPATGHILNFHVKSYDRGFATSEVGTDPDDRHVLHAEVSTSTDNGHTWTYRDITREITPDPTTRTRFVASGQGIALLHGPHAGGLIAQMTVRNSVGQQAQSIYSDDHGITWHAGNPVGRMMDENKVVELSDGTLMLNSRDAARSGRRKVAYSHDGGLTWGPVKLVDDLIDPTNNAQIIRAYPNARAGSAKARILLFTNARNATERVNGTLSVSCDDGRTWVSHQTYMPGEVGYTTAAVQSDGALGVLWERDGIRYSTIPMGWLNSVCPVAPSGRPTSGEPTSGTSLPLTATPSGSLHGGASSRPTSLPHTGD	–	35
